Measured values as given in article PMC5484114 (Marine Drugs, 2017).

Chains of the proteins cited; added tags and fusions are not shown. Lines headed by an entry give the natural chain unless they say otherwise; changes in a name come on top. Residues count along the entry.
UniProt P20782, 21-493 limits assumed: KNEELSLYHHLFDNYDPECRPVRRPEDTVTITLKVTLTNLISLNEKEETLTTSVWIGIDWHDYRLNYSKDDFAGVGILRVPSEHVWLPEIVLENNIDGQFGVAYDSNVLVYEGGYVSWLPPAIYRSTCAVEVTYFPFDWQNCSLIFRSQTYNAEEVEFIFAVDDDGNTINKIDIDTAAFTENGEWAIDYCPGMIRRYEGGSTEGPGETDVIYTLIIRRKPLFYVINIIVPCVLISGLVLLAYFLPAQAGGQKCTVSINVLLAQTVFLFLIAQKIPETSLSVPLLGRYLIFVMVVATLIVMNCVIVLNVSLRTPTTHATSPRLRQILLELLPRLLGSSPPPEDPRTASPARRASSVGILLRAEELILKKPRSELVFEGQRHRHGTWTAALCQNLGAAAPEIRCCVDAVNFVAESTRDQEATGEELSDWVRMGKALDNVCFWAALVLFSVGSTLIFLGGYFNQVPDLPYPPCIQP
UniProt P25108, 21-457 limits assumed: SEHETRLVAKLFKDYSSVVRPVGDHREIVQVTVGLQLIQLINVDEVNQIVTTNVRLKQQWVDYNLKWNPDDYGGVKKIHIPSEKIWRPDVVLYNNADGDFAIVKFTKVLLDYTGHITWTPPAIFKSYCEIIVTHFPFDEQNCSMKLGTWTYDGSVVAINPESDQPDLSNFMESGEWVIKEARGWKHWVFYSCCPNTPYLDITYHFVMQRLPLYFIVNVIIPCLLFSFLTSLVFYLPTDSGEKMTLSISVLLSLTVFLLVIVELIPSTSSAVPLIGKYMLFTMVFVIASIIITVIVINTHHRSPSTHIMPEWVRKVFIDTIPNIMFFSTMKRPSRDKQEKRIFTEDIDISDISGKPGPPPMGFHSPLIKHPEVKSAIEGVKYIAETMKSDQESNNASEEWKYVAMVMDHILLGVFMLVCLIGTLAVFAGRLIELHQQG
UniProt P25109, 24-501 limits assumed: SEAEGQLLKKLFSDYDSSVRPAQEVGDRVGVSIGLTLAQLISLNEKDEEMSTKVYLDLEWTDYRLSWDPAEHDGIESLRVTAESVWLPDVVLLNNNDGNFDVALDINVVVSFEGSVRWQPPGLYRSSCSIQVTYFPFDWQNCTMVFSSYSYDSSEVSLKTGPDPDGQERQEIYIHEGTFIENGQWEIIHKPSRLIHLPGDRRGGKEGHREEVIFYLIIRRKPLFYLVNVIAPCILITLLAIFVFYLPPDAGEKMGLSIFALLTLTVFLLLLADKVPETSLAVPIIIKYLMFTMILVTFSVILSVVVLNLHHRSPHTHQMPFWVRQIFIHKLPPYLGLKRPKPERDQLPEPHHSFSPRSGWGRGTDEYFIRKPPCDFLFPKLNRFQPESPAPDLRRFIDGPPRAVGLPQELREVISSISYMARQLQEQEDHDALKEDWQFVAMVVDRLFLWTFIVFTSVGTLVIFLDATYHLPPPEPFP
UniProt P25110, 22-517 limits assumed: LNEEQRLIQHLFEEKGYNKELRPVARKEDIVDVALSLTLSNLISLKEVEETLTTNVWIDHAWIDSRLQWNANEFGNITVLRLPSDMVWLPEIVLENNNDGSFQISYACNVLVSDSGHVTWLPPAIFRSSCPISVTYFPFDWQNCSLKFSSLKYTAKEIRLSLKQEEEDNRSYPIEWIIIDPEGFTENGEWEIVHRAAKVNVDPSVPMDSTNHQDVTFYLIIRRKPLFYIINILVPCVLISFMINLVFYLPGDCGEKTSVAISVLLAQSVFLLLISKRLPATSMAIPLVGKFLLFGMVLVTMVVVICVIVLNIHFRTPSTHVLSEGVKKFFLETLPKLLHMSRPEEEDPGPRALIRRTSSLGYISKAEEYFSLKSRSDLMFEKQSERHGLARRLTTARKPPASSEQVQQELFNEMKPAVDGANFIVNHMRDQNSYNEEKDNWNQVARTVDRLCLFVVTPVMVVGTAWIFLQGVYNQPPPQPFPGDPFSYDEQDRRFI

Target: rα1β1εδ nAChR (UniProt P20782+P25108+P25109+P25110)
Assay: Inhibition of ACh-evoked currents, two-electrode voltage clamp in Xenopus oocytes, rα1β1εδ
Details: 1 μM ACh

| Compound | Hill Slope (nH) at rα1β1εδ (concentration–response curve) | IC50 (read-out: IC50 (95% CI) at rα1β1εδ, X. laevis oocytes, holding potential −80 mV, 5 min peptide incubation, ND96 pH 7.4 + 0.1% BSA, 95% CI NTD 4.71–7.34 (n = 5–8), cNTD 3.35–4.56 (n = 5–7)) |
| --- | --- | --- |
| CC(C)C[C@H](NC(=O)[C@H](CO)NC(=O)[C@@H]1CSSC[C@H](NC(=O)[C@@H]2CCCN2C(=O)[C@H](CCCNC(=N)N)NC(=O)[C@H](Cc2c[nH]cn2)NC(=O)[C@@H](NC(=O)[C@@H](N)CC(=O)O)C(C)C)C(=O)N[C@@H](CCC(N)=O)C(=O)N[C@@H](CO)C(=O)N[C@@H](C(C)C)C(=O)N[C@@H](CCCNC(=N)N)C(=O)N2CCC[C@H]2C(=O)NCC(=O)N[C@@H](CCCNC(=N)N)C(=O)N[C@@H](C(C)C)C(=O)N[C@@H](Cc2c[nH]c3ccccc23)C(=O)NCC(=O)N[C@@H](CCCCN)C(=O)N[C@H](C(=O)N[C@@H](CO)C(=O)N[C@@H](CC(C)C)C(=O)O)CSSC[C@H](NC(=O)[C@@H]2CCCN2C(=O)[C@H](CCCNC(=N)N)NC(=O)[C@H](Cc2c[nH]cn2)NC(=O)[C@@H](NC(=O)[C@@H](N)CC(=O)O)C(C)C)C(=O)N[C@@H](CCC(N)=O)C(=O)N[C@@H](CO)C(=O)N[C@@H](C(C)C)C(=O)N[C@@H](CCCNC(=N)N)C(=O)N2CCC[C@H]2C(=O)NCC(=O)N[C@@H](CCCNC(=N)N)C(=O)N[C@@H](C(C)C)C(=O)N[C@@H](Cc2c[nH]c3ccccc23)C(=O)NCC(=O)N[C@@H](CCCCN)C(=O)N1)C(=O)O [NTD] | −1.1 |  |
| CC(C)[C@@H]1NC(=O)[C@H](CCCNC(=N)N)NC(=O)CNC(=O)[C@@H]2CCCN2C(=O)[C@H](CCCNC(=N)N)NC(=O)[C@H](C(C)C)NC(=O)[C@H](CO)NC(=O)[C@H](CCC(N)=O)NC(=O)[C@@H](N)CSSC[C@@H](C(=O)O)NC(=O)[C@H](CCCCN)NC(=O)CNC(=O)[C@H](Cc2c[nH]c3ccccc23)NC(=O)[C@H](C(C)C)NC(=O)[C@H](CCCNC(=N)N)NC(=O)CNC(=O)[C@@H]2CCCN2C(=O)[C@H](CCCNC(=N)N)NC(=O)[C@H](C(C)C)NC(=O)[C@H](CO)NC(=O)[C@H](CCC(N)=O)NC(=O)[C@@H]2CCCN2C(=O)CNC(=O)[C@@H]2CCCN2C(=O)[C@H](CCCCN)NC(=O)CNC(=O)[C@H](Cc2c[nH]c3ccccc23)NC1=O [cNTD] |  | 3.91 µM |
